Molecular target: Protease (Human immunodeficiency virus 1, UniProt Q9YQ12)
Test: Inhibition of HIV-1 NL4-3 wild type protease expressed in Escherichia coli preincubated for 20 mins by FRET analysis

Cc1cccc(C)c1OCC(=O)N[C@@H](Cc1ccccc1)[C@@H](O)C[C@H](Cc1ccccc1)NC(=O)[C@H](C(C)C)N1CCCNC1=O [LOPINAVIR]
IC50: 2.5 nM

— ChEMBL document CHEMBL3091441, “Ligand modifications to reduce the relative resistance of multi-drug resistant HIV-1 protease” (Bioorg Med Chem, 2013)
